Source: paper PMC4380410

Target: T1, CfaRfull-HIS6 (Streptomyces scabies 87-22) (UniProt C9ZEC8)
T1 sequence: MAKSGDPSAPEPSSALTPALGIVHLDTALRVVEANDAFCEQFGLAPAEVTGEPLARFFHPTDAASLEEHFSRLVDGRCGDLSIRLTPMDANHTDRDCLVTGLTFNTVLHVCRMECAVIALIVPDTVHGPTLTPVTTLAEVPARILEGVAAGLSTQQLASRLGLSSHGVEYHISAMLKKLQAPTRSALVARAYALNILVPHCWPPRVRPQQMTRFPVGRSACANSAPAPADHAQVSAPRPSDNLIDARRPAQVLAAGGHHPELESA
Assay: EMSA
Details: 50 ng DNA, 3.7 pmol protein; LightShift Chemiluminescent EMSA kit per manufacturer; pH and temperature not stated; recombinant protein; residues 1-265; protein details: C-terminal His6; probe letters rebuilt from the primers and the genome

## GCACAGGAAGGAGGAGAACCCCTCACCTCGGGCCCTTGGACCCGACACACCCGCAGCGCGTGCGACGGTTCCTGCGCCGGCCGGCCTGACAAACCAGGGCGAGACGCCGCATCTGCGGAACCGGTCGACCCGCAGACGAATCGTGGCCGACGCCAACCCGAATGCGGGGACTAGGGATTCTCCTAGTCGACCTTCGTTCTGTAGCCCTTGTATGGTCGCATTGCCTCCGCAGGTCGACCCCTTTCGGCACCATAGGAGACCCTCTTGGCGAACATCGAATCGACCATCAAGCACATCCTGGTCGACGATCTCTTCATCACTGTGCCG (double strand) [fragment a]
  binding result: binds
